This note sets out measurements from publication PMC9143577 (Molecules, 2022).

This series in a line: general procedure: Fmoc solid-phase peptide synthesis; aldehyde resin, reductive amination with palmitylamine; DIPCDI/HOBt. As to conditions: whole synthesis, scale of the general procedure 1.0 mmol resin, split over syringes, TFA salt (2TFA).

As for C15H31C(O)-Lys-(Ala)4-Lys-NHC16H33.2TFA, the outcome is on record as “purification by HPLC was not possible due to solubility problems”. Regarding C15H31C(O)-Lys-(Ala)3-Lys-NHC16H33.2TFA, the outcome is recorded as “purification by HPLC was not possible due to solubility problems”.
